Test results as given in US9901592B2 (priority 2008, dated 2018).

System: 20 strains (7 S. aureus, 6 β-haemolytic streptococci and 7 S. pneumoniae)
Assay: drug interaction (synergy) studies by the checkerboard method
Format: cell-based
Details: in combination with CEM-101

| Molecule | interaction category: Additive (occurrences) | interaction category: Antagonism (occurrences) | interaction category: Indeterminate (occurrences) | interaction category: Indifferent (occurrences) | interaction category: Synergy Complete (occurrences) | interaction category: Synergy Partial (occurrences) |
| --- | --- | --- | --- | --- | --- | --- |
| CO/N=C(\C(=O)N[C@@H]1C(=O)N2C(C(=O)O)=C(CSc3nc(=O)c(=O)[nH]n3C)CS[C@H]12)c1csc(N)n1 [CRO, ceftriaxone] | 5 | 0 | 1 | 12 | 0 | 2 |
| C[C@H]1COc2c(N3CCN(C)CC3)c(F)cc3c(=O)c(C(=O)O)cn1c23 [Levofloxacin, levofloxacin] | 3 | 0 | 0 | 17 | 0 | 0 |
| CN[C@H](CC(C)C)C(=O)N[C@H]1C(=O)N[C@@H](CC(N)=O)C(=O)N[C@H]2C(=O)N[C@H]3C(=O)N[C@H](C(=O)N[C@H](C(=O)O)c4cc(O)cc(O)c4-c4cc3ccc4O)[C@H](O)c3ccc(c(Cl)c3)Oc3cc2cc(c3O[C@@H]2O[C@H](CO)[C@@H](O)[C@H](O)[C@H]2O[C@H]2C[C@](C)(N)[C@H](O)[C@H](C)O2)Oc2ccc(cc2Cl)[C@H]1O [VAN, vancomycin] | 6 | 0 | 0 | 13 | 0 | 1 |
| gentamicin | 4 | 0 | 0 | 12 | 2 | 2 |
| trimethoprim/sulfamethoxazole [TMP/SMX] | 4 | 0 | 0 | 14 | 0 | 2 |
